Measured values from several laboratories, pooled; numbers as filed in NIAID ChemDB.

All rows: target-level tests

An empty or dashed field is not shown. Lines come from different laboratories, so protocols vary. Inhibition is in % at the dose shown (toxicity tests: loss of growth or viability). ICn is the concentration giving n% inhibition.

compound | dose | read-out | protein | strain | species | value
O=C(Nc1nnc(NCc2cccnc2)s1)c1cc2ccccc2s1 | - | IC50 | Polymerase | - | Human cytomegalovirus | >25 µM
O=C(O)c1ccc(N2C(=O)C(=Cc3ccc(-c4ccc(Cl)s4)o3)SC2=S)cc1 | - | IC50 | NS5 polymerase | - | Bovine viral diarrhea virus | ≤1 µM
O=C(Nc1nnc(NCCNc2ccccc2)s1)c1cccc([N+](=O)[O-])c1 | - | IC50 | Polymerase | - | Human cytomegalovirus | >25 µM
COc1ccc2ccc3nc(N)nc(N)c3c2c1 | - | IC50 | Dihydrofolate reductase | TYPE 1 | Cryptosporidium parvum | 1.2 µM
COc1ccccc1C(=O)Nc1nnc(NC[C@@H]2CCC3CC2C3(C)C)s1 | - | IC50 | Polymerase | - | Human cytomegalovirus | <25 µM
O=C(O)c1ccc(N2C(=O)C(=Cc3ccc(-c4cccc(C(F)(F)F)c4)o3)SC2=S)cc1 | - | IC50 | NS5 polymerase | - | Bovine viral diarrhea virus | ≤1 µM
Nc1nc(N)c2c(n1)CCC(c1ccccc1)C2 | - | IC50 | Dihydrofolate reductase | TYPE 2 | Cryptosporidium parvum | >10 µM
Cc1ccc(N2CCN(c3cncc(-c4ccc(F)c(Cl)c4)n3)CC2)c(C)c1 | 10 µM | inhibition | UL97 kinase | - | Cytomegalovirus | >15%
Cc1ccc(C(=O)Nc2nnc(NC3CCCCCC3)s2)cc1 | - | IC50 | Polymerase | - | Human cytomegalovirus | >25 µM
CSc1ccc(-c2cncc(N3CCN(c4ccc(F)cc4)CC3)n2)cc1 | - | IC50 | UL97 kinase | - | Cytomegalovirus | <10 µM
CCCc1ccc(-c2ccc(C=C3SC(=S)N(c4ccc(C(=O)O)cc4)C3=O)o2)s1 | - | IC50 | NS5 polymerase | - | Bovine viral diarrhea virus | ≤1 µM
Nc1nc(N)c2c(n1)Cc1ccc(Cl)cc1-2 | - | IC50 | Dihydrofolate reductase | TYPE 1 | Cryptosporidium parvum | >10 µM
O=C(O)c1ccc(N2C(=O)/C(=C\c3ccc(-c4cc(C(F)(F)F)ccc4Cl)o3)SC2=S)cc1 | - | IC50 | NS5 polymerase | - | Bovine viral diarrhea virus | ≤1 µM
COc1ccc(CO)c(CNc2ccc3nc(N)nc(N)c3c2Cl)c1 | - | IC50 | Dihydrofolate reductase | TYPE 2 | Cryptosporidium parvum | 0.023 µM
OCc1ccccc1-c1cncc(N2CCN(c3ccc(F)cc3F)CC2)n1 | 10 µM | inhibition | UL97 kinase | - | Cytomegalovirus | >15%
Nc1nc(N)c2nc(CN3c4ccccc4C=Cc4ccccc43)cnc2n1 | - | IC50 | Dihydrofolate reductase | TYPE 1 | Cryptosporidium parvum | 2.1 µM
O=C(Nc1nnc(NCCSc2ccccc2)s1)c1ccc(Br)cc1 | - | IC50 | Polymerase | - | Human cytomegalovirus | <25 µM
COc1cccc(N2CCN(c3cnccn3)C(c3cc4ccccc4o3)C2)c1 | 1 µM | inhibition | UL97 kinase | - | Cytomegalovirus | <50%
Nc1nc(N)c2nc(Cc3ccc(Cl)cc3)c(Cc3ccc(Cl)cc3)nc2n1 | - | IC50 | Dihydrofolate reductase | TYPE 2 | Cryptosporidium parvum | 1.2 µM
Clc1ccc(N2CCN(c3cncc(-c4ccc5ccccc5c4)n3)CC2)cc1 | - | IC50 | UL97 kinase | - | Cytomegalovirus | <10 µM
CCOc1cccc2nc(N)nc(N)c12 | - | IC50 | Dihydrofolate reductase | TYPE 1 | Cryptosporidium parvum | 0.35 µM